A mixed list of measured activities; the numbers were collected in NIAID ChemDB.

Common to all: enzyme or target tests

Neighbouring rows are from separate reports.

smiles | strain or isolate | target | endpoint | mutations | tested at | agent | read by | value
O=C(NCc1ccccc1)c1cn2c(c(O)c1=O)C(=O)N(Cc1cccc(Cl)c1)CC2 |  | Integrase | IC50 |  |  | HIV-1 | ELISA | <0.01 µM
COc1ccnc2[nH]cc(C(=O)C(=O)N3CCN(C(=O)c4ccccc4)C[C@H]3C)c12 | LAI | gp120 | fold resistance | GP120-V68A |  | HIV-1 | ELISA | 1
CC(C)(C)NC(=O)[C@@H]1CSCN1C(=O)[C@@H](O)[C@H](Cc1ccccc1)NC(=O)[C@@H](NC(=O)COc1cccc2ccccc12)C(C)(C)C |  | Protease | inhibition |  | 0.05 µM | HIV-1 |  | 77.4%
Cc1cc(CNC(=O)c2nc3n(c(=O)c2O)CCN(CC2CC2)CC3N(C)C(=O)C(=O)N(C)C)ccc1F |  | Integrase | IC50 |  |  | HIV-1 | ELISA | <10 µM
CC(C)(C)NC(=O)[C@H]1Cc2ccccc2CN1C(=O)[C@@H](O)[C@H](Cc1ccccc1)NC(=O)[C@H](CC(N)=O)NC(=O)OCc1ccccc1 |  | Protease | inhibition |  | 0.05 µM | HIV-1 |  | 8.6%
CCN1c2ncc(CCOc3ccc(C(=O)O)c4c3CCCC4)cc2C(=O)N(C)c2ccc(Cl)nc21 |  | Reverse transcriptase | fold resistance | RT-Y188L |  | HIV-1 | nucleotide incorporation / radiometric | 1–10
CC(C)(C#Cc1ccc(NC(=O)CSc2nnnn2-c2cc(C(C)(C)C)ccc2Cl)c(Cl)c1)C(=O)O |  | Reverse transcriptase | IC50 | RT-K103 Y181C |  | HIV-1 | PicoGreen / fluorescence | <1 µM
CC(C)(C)NC(=O)[C@H]1N(C(=O)[C@@H](O)[C@H](Cc2ccccc2)NC(=O)[C@H](CSN)NC(=O)COc2cccc3cnccc23)CSC1(C)C |  | Protease | inhibition |  | 0.05 µM | HIV-1 |  | 99.1%
CC(=O)N1CCn2c(nc(C(=O)NCc3ccc(F)cc3)c(O)c2=O)C1CO |  | Integrase | IC50 |  |  | HIV-1 | ELISA | <10 µM
CC(C)(C#Cc1ccc(NC(=O)CSc2nnnn2-c2ccc(C(C)(C)C)cc2Cl)c(Cl)c1)C(=O)NCCN1CCOCC1 | WT | Reverse transcriptase | IC50 |  |  | HIV-1 | PicoGreen / fluorescence | <1 µM
Cc1ccc(Cn2cccc2/C=C/C(=O)CC(=O)C(=O)O)c(C)c1 |  | RNase H | IC50 |  |  | HIV-1 | substrate cleavage / fluorescence | 19.3 µM
CCOC(=O)C(=O)CC(=O)/C=C/c1cccn1Cc1ccccc1Cl |  | RNase H | IC50 |  |  | HIV-1 | RNase H / absorbance | 8.5 µM
CCN1c2ncc(CCOc3ccc(C(=O)O)c4c3CCN(S(=O)(=O)N(C)C)C4)cc2C(=O)N(C)c2cccnc21 |  | Reverse transcriptase | fold resistance | RT-K103N Y181C |  | HIV-1 | nucleotide incorporation / radiometric | 1
CC(C)c1cc(Cl)c(-n2nnnc2SCC(=O)Nc2ccc(-c3ccc(CC(=O)O)cc3)cc2Cl)c(C(F)(F)F)c1 | WT | Reverse transcriptase | IC50 |  |  | HIV-1 | PicoGreen / fluorescence | <1 µM
O=C(/C=C/c1cccn1Cc1ccccc1Cl)CC(=O)C(=O)O |  | RNase H | IC50 | N474A |  | HIV-1 | substrate cleavage / fluorescence | >100 µM
CC(C)(C#Cc1ccc(NC(=O)CSc2nnnn2-c2ccc(C3CC3)cc2Cl)c(Cl)c1)NC(=O)C1(C(=O)O)CC1 | WT | Reverse transcriptase | IC50 |  |  | HIV-1 | PicoGreen / fluorescence | <1 µM
CN(C)C(=O)c1cn(Cc2cccc(Cl)c2)c(=O)c2c(O)c(=O)ccn12 |  | Integrase | IC50 |  |  | HIV-1 | ELISA | 0.01–0.1 µM
CC(C)(C#Cc1ccc(NC(=O)CSc2nnnn2-c2cc(C(C)(C)C)cc(Br)c2Cl)c(Cl)c1)NC(=O)CN1CCC(C(=O)O)CC1 | WT | Reverse transcriptase | IC50 |  |  | HIV-1 | PicoGreen / fluorescence | <1 µM
CC(=O)N1CCn2c(nc(C(=O)NCc3ccc(F)cc3)c(O)c2=O)C1C |  | Integrase | IC50 |  |  | HIV-1 | ELISA | <10 µM
CCN1c2ncc(CCOc3ccc(CCC(=O)O)c4ccccc34)cc2C(=O)Nc2c(C)cc(F)nc21 |  | Reverse transcriptase | fold resistance | RT-K103N Y181C |  | HIV-1 | nucleotide incorporation / radiometric | 1–10
CC(C)(C#Cc1ccc(NC(=O)CSc2nnnn2-c2cc(C3CC3)cc(C(F)(F)F)c2Cl)c(Cl)c1F)NC(=O)c1ccc[n+]([O-])c1 |  | Reverse transcriptase | IC50 | RT-K103 Y181C |  | HIV-1 | PicoGreen / fluorescence | <1 µM
CCOC(=O)C(=O)CC(=O)/C=C/c1cccn1Cc1ccc(C)cc1C |  | RNase H | IC50 |  |  | HIV-1 | substrate cleavage / fluorescence | 8.2 µM
CC1c2nc(C(=O)NCc3ccc(F)cc3)c(O)c(=O)n2CCN1Cc1ccnn1C |  | Integrase | IC50 |  |  | HIV-1 | ELISA | <10 µM
CC1CN(Cc2ccc(Cl)c(Cl)c2)C(=O)c2c(O)c(=O)ccn21 |  | Integrase | IC50 |  |  | HIV-1 | ELISA | 0.01–0.1 µM
COc1cccc(Cn2cccc2/C=C/C(=O)CC(=O)C(=O)O)c1 |  | RNase H | inhibition | R557A | 100 µM | HIV-1 | substrate cleavage / fluorescence | 32%
CC(C)(C)NC(=O)[C@@H]1CSCN1C(=O)[C@@H](O)[C@H](Cc1ccccc1)NC(=O)[C@H](CC(N)=O)NC(=O)OCc1ccccc1 |  | Protease | inhibition |  | 5 µM | HIV-1 |  | 98.7%
CC(C)(NC(=O)c1ccc(NC(=O)CSc2nnnn2-c2ccc(C3CC3)cc2Cl)c(Cl)c1)C(=O)O | WT | Reverse transcriptase | IC50 |  |  | HIV-1 | PicoGreen / fluorescence | <1 µM
O=c1c(-c2ccccc2F)cn2ccn(Cc3cccc(Cl)c3)c(=O)c2c1O |  | Integrase | IC50 |  |  | HIV-1 | ELISA | <0.01 µM
Cn1ccc(CN2CCn3c(nc(C(=O)NCc4ccc(F)cc4)c(O)c3=O)C23CCOCC3)n1 |  | Integrase | IC50 |  |  | HIV-1 | ELISA | <10 µM
CCC(=O)Nc1cn2ccn(Cc3cccc(Cl)c3)c(=O)c2c(O)c1=O |  | Integrase | IC50 |  |  | HIV-1 | ELISA | <0.01 µM
CCN1c2ncc(CCOc3ccc(C(=O)O)c4c3CCN(C(=O)OC)C4)cc2C(=O)N(C)c2cccnc21 |  | Reverse transcriptase | fold resistance | RT-Y188L |  | HIV-1 | nucleotide incorporation / radiometric | 1–10
O=C1c2c(O)c(=O)cc(-c3ccccc3)n2CCN1Cc1ccc(Cl)c(Cl)c1 |  | Integrase | IC50 |  |  | HIV-1 | ELISA | 0.01–0.1 µM
Nc1nc2c(ncn2[C@H]2CC[C@@H](COP(=O)(O)OP(=O)(O)OP(=O)(O)O)O2)c(=O)[nH]1 |  | Reverse transcriptase | fold resistance | RT-Y271S |  | HIV | nucleotide incorporation | >5
Cc1ccc(Cl)cc1Nc1nc(C(F)(F)F)ccc1C(=O)NN1CCN(c2cccc(Cl)c2)CC1 |  | RNase H | IC50 | Q475A |  | HIV-1 | RNase H / absorbance | >100 µM
CC1(C)CN(Cc2ccc(F)cc2)C(=O)c2c(O)c(=O)c(-c3ccccn3)cn21 |  | Integrase | IC50 |  |  | HIV-1 | ELISA | 0.1–1 µM
CC(C)(C#Cc1ccc(NC(=O)CSc2nnnn2-c2ccc(C(C)(C)C)cc2Cl)c(Cl)c1)OCC(=O)NCCC(=O)O | WT | Reverse transcriptase | IC50 |  |  | HIV-1 | PicoGreen / fluorescence | <1 µM
Nc1ccn([C@@H]2CS[C@H](COP(=O)(O)OP(=O)(O)OP(=O)(O)O)O2)c(=O)n1 |  | Reverse transcriptase | fold resistance | RT-Q151M K103N |  | HIV | radiometric | 0.45
CC(C)CNC(=O)[C@H](Cc1ccccc1)NC(=O)[C@H](O)[C@H](Cc1ccccc1)NC(=O)[C@@H](NC(=O)OCc1ccccc1)C(C)C |  | Protease | inhibition |  | 5 µM | HIV-1 |  | 15.1%
CCCCC1Cn2ccc(=O)c(O)c2C(=O)N1Cc1ccc(Cl)c(Cl)c1 |  | Integrase | IC50 |  |  | HIV-1 | ELISA | 0.01–0.1 µM
CC1(C)c2nc(C(=O)NCc3ccc(F)cc3)c(O)c(=O)n2CCN1CCN1CCOCC1 |  | Integrase | IC50 |  |  | HIV-1 | ELISA | <10 µM
CC(C)(C)NC(=O)[C@@H]1CCCN1C(=O)[C@@H](O)[C@H](Cc1ccccc1)NC(=O)[C@H](CS(C)(=O)=O)NC(=O)COc1ccc2ccccc2c1 |  | Protease | inhibition |  | 0.05 µM | HIV-1 |  | 71.2%

Repeating the first 6 entries:

| smiles | strain or isolate | target | endpoint | mutations | tested at | agent | read by | value |
|---|---|---|---|---|---|---|---|---|
| O=C(NCc1ccccc1)c1cn2c(c(O)c1=O)C(=O)N(Cc1cccc(Cl)c1)CC2 |  | Integrase | IC50 |  |  | HIV-1 | ELISA | <0.01 µM |
| COc1ccnc2[nH]cc(C(=O)C(=O)N3CCN(C(=O)c4ccccc4)C[C@H]3C)c12 | LAI | gp120 | fold resistance | GP120-V68A |  | HIV-1 | ELISA | 1 |
| CC(C)(C)NC(=O)[C@@H]1CSCN1C(=O)[C@@H](O)[C@H](Cc1ccccc1)NC(=O)[C@@H](NC(=O)COc1cccc2ccccc12)C(C)(C)C |  | Protease | inhibition |  | 0.05 µM | HIV-1 |  | 77.4% |
| Cc1cc(CNC(=O)c2nc3n(c(=O)c2O)CCN(CC2CC2)CC3N(C)C(=O)C(=O)N(C)C)ccc1F |  | Integrase | IC50 |  |  | HIV-1 | ELISA | <10 µM |
| CC(C)(C)NC(=O)[C@H]1Cc2ccccc2CN1C(=O)[C@@H](O)[C@H](Cc1ccccc1)NC(=O)[C@H](CC(N)=O)NC(=O)OCc1ccccc1 |  | Protease | inhibition |  | 0.05 µM | HIV-1 |  | 8.6% |
| CCN1c2ncc(CCOc3ccc(C(=O)O)c4c3CCCC4)cc2C(=O)N(C)c2ccc(Cl)nc21 |  | Reverse transcriptase | fold resistance | RT-Y188L |  | HIV-1 | nucleotide incorporation / radiometric | 1–10 |

Inhibition is in % at the dose shown (toxicity tests: loss of growth or viability). An empty or dashed field is not shown. Two numbers with a dash give a range or band. ICn: concentration for n% inhibition. Fold resistance has wild type as its base.